Pooled drug test results. Numbers come from NIAID ChemDB, via PubChem.

Shared fields: tests on isolated targets; species: Pneumocystis carinii

Rows are shuffled and stem from different studies.

COc1c(Cc2cnc(N)nc2N)cc2c(c1OC)OCC2 ; measure: IC50 ; protein: DHFR ; value: 12.9 µM
CN(Cc1cnc2nc(N)nc(N)c2n1)c1ccc(C(=O)N[C@H](CCC(=O)O)C(=O)O)cc1F ; measure: IC50 ; protein: Dihydrofolate reductase ; value: 0.00072 µM
CCc1nc(N)nc(N)c1-c1ccc(Cl)c(Cl)c1 ; measure: IC50 ; protein: DHFR ; value: 1.08 µM
CCc1nc(N)nc(N)c1-c1ccc(Cc2ccccc2)c([N+](=O)[O-])c1 ; measure: IC50 ; protein: Dihydrofolate reductase ; value: 1.03 µM
Nc1ccc(S(=O)(=O)Nc2nccs2)cc1 ; measure: IC50 ; protein: DHPS ; value: 0.013 µM
Nc1nc(N)c(-c2ccc(Cl)c(Cl)c2)c(/C=C/c2ccc3ccccc3c2)n1 ; measure: IC50 ; protein: Dihydrofolate reductase ; value: 12.8 µM
Nc1ccc(S(=O)(=O)Nc2ncccn2)cc1 ; measure: inhibition ; read by: HPLC ; dose: 500 µM ; protein: Oxidosqualene cyclase ; value: 10%
CC(CCCN)Nc1cc(O)c(O)c2cccnc12 ; measure: inhibition ; dose: 10 µM ; protein: Dihydroorotate dehydrogenase ; value: 0%
COc1cc(Cc2cc3[nH]c(N)nc(N)c3c3ccnc23)cc(OC)c1 ; measure: IC50 ; protein: DHFR ; value: 0.039 µM
N=C(N)c1ccc(-c2cc3ccc(C(=N)N)cc3[nH]2)cc1 ; measure: IC50 ; protein: Topoisomerase II ; value: 1–3 µM
COc1ccccc1NC1=C(Cl)C(=O)C(Nc2ccccc2OC)=C(Cl)C1=O ; measure: IC50 ; protein: DHFR ; value: >100 µM
Nc1ccc(S(=O)(=O)Nc2cnc3ccccc3n2)cc1 ; measure: Ki ; read by: HPLC ; protein: Oxidosqualene cyclase ; value: 92 µM
COc1cc(Cc2cnc(N)nc2N)cc(OC)c1C(C)(C)O ; measure: IC50 ; protein: DHFR ; value: 25 µM
N#CCc1nc(N)nc(N)c1-c1ccc(Cl)cc1 ; measure: IC50 ; protein: DHFR ; value: 490 µM
Nc1nc(N)c(-c2ccc(Cl)c(Cl)c2)c(/C=C/Cc2ccccc2)n1 ; measure: IC50 ; protein: Dihydrofolate reductase ; value: 0.5 µM
CC1(C)N=C(N)N=C(N)N1c1ccc(CCc2ccccc2)cc1 ; measure: IC50 ; protein: DHFR ; value: 0.57 µM
c1cc2nc(CCCCc3nc4ccc(C5=NCCN5)cc4[nH]3)[nH]c2cc1C1=NCCN1 ; measure: IC50 ; protein: Topoisomerase II ; value: 1.25 µM
CC(=O)Nc1ccc(C(=O)O)c(C(=O)c2ccccc2Cl)c1 ; measure: inhibition ; dose: 100 µM ; protein: DHFR ; value: 26%
CN(Cc1cnc2nc(N)nc(N)c2n1)c1c(Cl)cc(C(=O)N[C@@H](CCC(=O)O)C(=O)O)cc1Br ; measure: IC50 ; protein: DHFR ; value: 0.00021 µM
O=C(O)COCC(=O)NNC(=O)c1ccncc1 ; measure: inhibition ; dose: 100 µM ; protein: DHFR ; value: 14%
COc1cc(NS(=O)(=O)c2ccc(N)cc2)ncn1 ; measure: IC50 ; protein: DHPS ; value: 0.054 µM
O=C(O)c1c(Cl)c(Cl)c(Cl)c(Cl)c1C(=O)N(c1ccccc1)c1ccco1 ; measure: IC50 ; protein: DHFR ; value: >100 µM
CN(Cc1cnc2nc(N)nc(N)c2n1)c1ccccc1 ; measure: IC50 ; protein: DHFR ; value: 10 µM
Cc1cc(NC(=O)Oc2ccc3c(C)cc(=O)oc3c2)cc(Br)c1NC(=O)Oc1ccc2c(C)cc(=O)oc2c1 ; measure: IC50 ; protein: DHFR ; value: 90 µM
CC1(C)N=C(N)N=C(N)N1c1cccc(CC(=O)Nc2ccccc2)c1 ; measure: IC50 ; protein: DHFR ; value: 0.44 µM
Cc1noc(NS(=O)(=O)c2ccc(N)cc2)c1C ; measure: IC50 ; protein: DHPS ; value: 0.04 µM
Cc1c(CNc2ccc(C(=O)NC(CC(=O)O)C(=O)O)cc2)ccc2nc(N)nc(N)c12 ; measure: IC50 ; protein: Dihydrofolate reductase ; value: 0.00042 µM
COc1cc(Cc2cnc(N)nc2N)cc(OCCC(CCC(=O)O)C(=O)O)c1Br ; measure: IC50 ; protein: DHFR ; value: 0.04 µM
Cc1cc(NS(=O)(=O)c2ccc(N)cc2)nc(C)n1 ; measure: IC50 ; protein: DHPS ; value: 0.37 µM
CCc1nc(N)nc(N)c1-c1ccc(N(C)Cc2ccccc2)c(N)c1 ; measure: IC50 ; protein: DHFR ; value: 3.6 µM

a–b is a range or a potency band. ICn: concentration for n% inhibition. Percent inhibition refers to the dose given; in toxicity tests it is the harm to the cells.